Data: PMC3198402 (PLoS ONE, 2011)
pKd: −log10 of the molar value.

Experiments:
B*3501 = B*3501 (Homo sapiens, UniProt P01889, A329T/A93T/A95T/C349S/D201E/D98Y/E176V/E187L/E204Q/E69T/I218V/K202T/L119I/Q94N/R155S/R180L/S121R/S35A/S48A/T118I/V127L/V306I/V36M/Y140S/Y91F); test: biochemical; assay type: binding
HLA-A*02:01 = HLA-A*02:01 (Homo sapiens, UniProt P04439, D140Y/D185E/D98H/E176V/E277Q/G131W/G231S/I119V/I121R/I166T/I218V/L300P/L318F/N151K/N90K/P208A/P217A/Q86G/Q94H/R138H/R169H/T345S); test: biochemical; assay type: binding

| SMILES | pKd (B*3501) | pKd (HLA-A*02:01) |
| --- | --- | --- |
| CSCC[C@H](NC(=O)[C@H](CC(C)C)NC(=O)[C@H](CO)NC(=O)[C@H](Cc1c[nH]c2ccccc12)NC(=O)[C@H](CCSC)NC(=O)[C@H](CCC(N)=O)NC(=O)[C@H](C)NC(=O)[C@@H](N)Cc1ccc(O)cc1)C(=O)N[C@@H](Cc1ccc(O)cc1)C(=O)O [Peptide 14585] | 9.00 | – |
| CC(C)C[C@H](NC(=O)[C@H](Cc1c[nH]c2ccccc12)NC(=O)CNC(=O)[C@H](C)NC(=O)[C@H](CC(C)C)NC(=O)[C@@H](N)C(C)C)C(=O)N[C@@H](Cc1ccccc1)C(=O)N[C@@H](Cc1c[nH]cn1)C(=O)N[C@H](C(=O)O)C(C)C [Peptide 15879] | – | 9.00 |
